In PubChem BioAssay AID651958 (The Scripps Research Institute Molecular Screening Center, 2012):
Only a part is listed here, and it is no random draw. Active and inactive are the calls of the source. Cut-off read from the data, not from the text of the source: active = inhibition above about 30%; inactive = the rest.

The molecules below were run on Crimean-Congo hemorrhagic fever virus L polyprotein viral ovarian tumor (vOTU) protease domain (assay: CCHFV vOTU protease inhibitors, primary screen, biochemical, Pep-AMC substrate, fluorescence (AID 651958; note: 0% = vehicle wells with enzyme and 100% = no enzyme wells)). Details: at 11.5 µM, active compounds read high.

| SMILES | inhibition |
| --- | --- |
| O=C(NCC1(N2CCCCC2)CCCCC1)c1cccs1 | inactive: -7.47% |
| CCCCn1nnnc1C(CC)N1CCC(n2c(=O)[nH]c3ccccc32)CC1 (stereo not given) | inactive: 6.28% |
| CCCCn1nnnc1C(c1cccs1)N1CCC(n2c(=O)[nH]c3ccccc32)CC1 (stereo not given) | inactive: 1.76% |
| O=C(NCC1(N2CCCCC2)CCCCC1)c1ccc(=O)[nH]c1 | inactive: 7.5% |
| CC(C)(C)OC(=O)N1CCC(N(C(=O)c2ccccc2)c2ccc(F)cc2)CC1 | inactive: 1.97% |
| COc1ccc(C(=O)NCC2(N3CCCCC3)CCCCC2)c(OC)c1OC | inactive: 2.01% |
| CCC(c1nnnn1C1CCCC1)N1CCC(n2c(=O)[nH]c3ccccc32)CC1 (stereo not given) | inactive: 1.25% |
| COc1ccc(C(=O)NCC2(N3CCCCC3)CCCCC2)cc1 | inactive: 4.14% |
| Cc1cccc(NC2(C#N)CCN(Cc3ccccc3)CC2)c1 | inactive: 25.5% |
| CSc1ccccc1C(=O)NCC1(N2CCCCC2)CCCCC1 | inactive: 5.06% |
| O=C(NCC1(N2CCOCC2)CCCCC1)c1cc2ccccc2o1 | inactive: -2.16% |
| Cc1cc(C)cc(N(C(=O)c2ccccc2)C2CCN(C(=O)OC(C)(C)C)CC2)c1 | inactive: 14.2% |
| O=C(NCC1(N2CCCCC2)CCCCC1)c1ccc(Cl)nc1 | inactive: 13.8% |
| O=c1[nH]c2ccccc2n1C1CCN(C(c2ccccc2OC(F)(F)F)c2nnnn2C2CCCCC2)CC1 (stereo not given) | inactive: -3.98% |
| CCCCn1nnnc1C(c1ccc(OC)cc1)N1CCC(n2c(=O)[nH]c3ccccc32)CC1 (stereo not given) | inactive: 3.12% |
| CCOC(=O)N1CCC(Nc2ccc(OC)cc2)CC1 | inactive: -10.6% |
| COc1ccc(Cl)cc1C(=O)NCC1(N2CCOCC2)CCCCC1 | inactive: -3.96% |
| N#CC1(Nc2ccccc2)CCN(Cc2ccccc2)CC1 | inactive: -18% |
| O=C(NCC1(N2CCCCC2)CCCCC1)c1ccc(Cl)s1 | inactive: 4.09% |
| O=C(OC1CN2CCC1CC2)C1c2ccccc2Oc2ccccc21 (stereo not given) | inactive: 4.19% |
| O=c1[nH]c2ccccc2n1C1CCN(C(c2cc3ccccc3o2)c2nnnn2C2CCCCC2)CC1 (stereo not given) | inactive: 11.3% |
| CCOc1ccc(C)cc1CN(CCCl)CCCl | inactive: -1.99% |

| SMILES | inhibition |
| --- | --- |
| O=C1CCN(Cc2ccccc2)CC1 | inactive: -0.39% |
| CC(C)(C)n1nnnc1C(c1ccccc1)N1CCC(n2c(=O)[nH]c3ccccc32)CC1 (stereo not given) | inactive: -10.6% |
| COc1ccc(NC2CCN(CCc3ccccc3)CC2)c(OC)c1 | inactive: -20.6% |
| CCOC(=O)N1CCC(Nc2ccc(F)cc2)CC1 | inactive: 3.52% |
| O=P1(N(CCCl)CCCl)SCCCS1 | inactive: 0.58% |
| CCCCn1nnnc1C(c1cc2ccccc2o1)N1CCC(n2c(=O)[nH]c3ccccc32)CC1 (stereo not given) | inactive: 2.17% |
| CCCCOc1ccc(C(=O)NCC2(N3CCOCC3)CCCCC2)cc1 | inactive: 7.27% |
| O=C(NCC1(N2CCCCC2)CCCCC1)c1ccc(F)cc1 | inactive: 11.9% |
| O=c1[nH]c2ccccc2n1C1CCN(C(c2ccccc2)c2nnnn2C2CCCCC2)CC1 (stereo not given) | inactive: 11.1% |
| O=c1[nH]c2ccccc2n1C1CCN(C(c2cccc3ccccc23)c2nnnn2C2CCCC2)CC1 (stereo not given) | inactive: 0.83% |
| CCOC(=O)N1CCC(Nc2cccc(C)c2)CC1 | inactive: 14.5% |
| COc1cc(C(=O)NCC2(N(C)C)CCCCC2)ccc1OC(F)F | inactive: 26.5% |
| O=C(NCC1(N2CCCCC2)CCCCC1)c1ccc(OC(F)F)cc1 | inactive: -2.61% |
| CC(C)(C)n1nnnc1C(c1ccccc1OC(F)(F)F)N1CCC(n2c(=O)[nH]c3ccccc32)CC1 (stereo not given) | inactive: 22.2% |
| CSc1ccc(C(=O)NCC2(N3CCOCC3)CCCCC2)cc1 | inactive: 7.69% |
| O=C(NCC1(N2CCCCC2)CCCCC1)c1cccc([N+](=O)[O-])c1 | inactive: -5.6% |
| O=c1[nH]c2ccccc2n1C1CCN(C(c2ccccc2OC(F)(F)F)c2nnnn2C2CCCC2)CC1 (stereo not given) | inactive: 5.33% |
| N#CC1(Nc2ccccc2)CCN(CCc2ccccc2)CC1 | inactive: -1.6% |
| CCN1CCC(Nc2ccc(Cl)cc2)CC1 | inactive: 7.15% |
| O=C(NCC1(N2CCCCC2)CCCCC1)c1cccc(C(F)(F)F)c1 | inactive: -15.9% |
| CN1CCN(CCOC(=O)C(O)(c2ccccc2)c2ccccc2)CC1 | inactive: -0.16% |
| CC(C)c1ccc(C(=O)NCC2(N3CCOCC3)CCCCC2)cc1 | inactive: 15.5% |

| SMILES | inhibition |
| --- | --- |
| COc1ccc(NC2CCN(C(=O)OC(C)(C)C)CC2)cc1 | inactive: 22.1% |
| CCCCn1nnnc1C(c1cccc2ccccc12)N1CCC(n2c(=O)[nH]c3ccccc32)CC1 (stereo not given) | inactive: 13.8% |
| COc1cc(C(=O)NCC2(N3CCCCC3)CCCCC2)ccc1OC(F)F | inactive: 4.95% |
| O=C(NCC1(N2CCOCC2)CCCCC1)c1cc(=O)[nH]c2ccccc12 | inactive: -2.29% |
| CN(C)c1cccc(C(=O)NCC2(N3CCCCC3)CCCCC2)c1 | inactive: -14.4% |
| COc1ccc(CN(CCCl)CCCl)cc1Cl | inactive: -4.32% |
| COC(=O)C1(Nc2ccccc2)CCN(Cc2ccccc2)CC1 | inactive: -6.23% |
| CC(C)c1ccc(NC2CCN(C(=O)OC(C)(C)C)CC2)cc1 | inactive: -2.54% |
| CCCCn1nnnc1C(c1ccnc2ccccc12)N1CCC(n2c(=O)[nH]c3ccccc32)CC1 (stereo not given) | inactive: 7.12% |
| CCC(c1nnnn1C(C)(C)C)N1CCC(n2c(=O)[nH]c3ccccc32)CC1 (stereo not given) | inactive: 1.06% |
| O=C(NCC1(N2CCOCC2)CCCCC1)c1cc(F)c(F)cc1Cl | inactive: -3.35% |
| COc1cc(OC)c(C(=O)NCC2(N(C)C)CCCCC2)cc1OC | inactive: -2.38% |
| CN1CCC(Nc2cccc(F)c2)CC1 | inactive: -8.06% |
| O=C(NCC1(N2CCCCC2)CCCCC1)c1cncc(Br)c1 | inactive: -3.47% |
| CCCOc1ccc(C(=O)NCC2(N(C)C)CCCCC2)cc1OC | inactive: -13.2% |
| Cc1ccc(C(=O)NCC2(N(C)C)CCCCC2)o1 | inactive: 15.9% |
| COc1ccc(C(c2nnnn2C2CCCC2)N2CCC(n3c(=O)[nH]c4ccccc43)CC2)cc1 (stereo not given) | inactive: 5.08% |
| O=C(NCC1(N2CCOCC2)CCCCC1)c1cc(Br)ccc1Cl | inactive: 12.2% |
| COc1cc(C(=O)NCC2(N3CCOCC3)CCCCC2)cc(OC)c1C | inactive: 12.1% |
| CCCCn1nnnc1C(c1ccccc1)N1CCC(n2c(=O)[nH]c3ccccc32)CC1 (stereo not given) | inactive: 12.6% |
| O=c1[nH]c2ccccc2n1C1CCN(C(c2ccnc3ccccc23)c2nnnn2C2CCCC2)CC1 (stereo not given) | inactive: -1.7% |
| COc1ccc(C(=O)NCC2(N3CCOCC3)CCCCC2)cc1OC | inactive: -7.55% |

| SMILES | inhibition |
| --- | --- |
| NC(=O)C1(Nc2ccccc2)CCN(Cc2ccccc2)CC1 | inactive: 2.22% |
| O=c1[nH]c2ccccc2n1C1CCN(C(c2cccs2)c2nnnn2C2CCCCC2)CC1 (stereo not given) | inactive: 20.8% |
| N/C(=N\O)c1c(N)no[n+]1[O-] | inactive: 7.25% |
| CCOC(=O)N1CCC(Nc2ccc(C)cc2)CC1 | inactive: -6.07% |
| COc1cccc(C(c2nnnn2C(C)(C)C)N2CCC(n3c(=O)[nH]c4ccccc43)CC2)c1OC (stereo not given) | inactive: -2.87% |
| CCCCn1nnnc1C(c1cccc(OC)c1OC)N1CCC(n2c(=O)[nH]c3ccccc32)CC1 (stereo not given) | inactive: 6.91% |
| O=c1[nH]c2ccccc2n1C1CCN(C(c2cccs2)c2nnnn2C2CCCC2)CC1 (stereo not given) | inactive: 5.96% |
| O=C(OC1CN2CCC1CC2)C1c2ccccc2C=Cc2ccccc21 (stereo not given) | inactive: -2.33% |
| CC(C)(C)OC(=O)N1CCC(N(C(=O)c2ccccc2)c2ccc(Cl)cc2)CC1 | inactive: 6.8% |
| N#Cc1ccc(C(=O)NCC2(N3CCCCC3)CCCCC2)cc1 | inactive: 2.24% |
| Cc1cc(N(CCCl)CCCl)ccc1C=O | inactive: 24.9% |
| CCCN1CCC(Nc2cc(OC)cc(OC)c2)CC1 | inactive: 3.51% |
| O=c1[nH]c2ccccc2n1C1CCN(C(c2ccccc2)c2nnnn2C2CCCC2)CC1 (stereo not given) | inactive: 1.28% |
| C/C(N)=N\P(=O)(Oc1ccccc1)Oc1ccccc1 | inactive: 1.58% |
| c1ccc(CN2CCC(Nc3ccccc3)CC2)cc1 | inactive: 10.6% |
| CN(C)C1(CNC(=O)c2cccc(C#N)c2)CCCCC1 | inactive: 7.77% |
| CC(C)(C)n1nnnc1C(c1cccc2ccccc12)N1CCC(n2c(=O)[nH]c3ccccc32)CC1 (stereo not given) | inactive: 7.26% |
| COc1cc(OC)cc(C(=O)NCC2(N3CCCCC3)CCCCC2)c1 | inactive: 9.87% |
| O=c1[nH]c2ccccc2n1C1CCN(C(c2ccnc3ccccc23)c2nnnn2C2CCCCC2)CC1 (stereo not given) | inactive: -1.67% |
| CCC(c1nnnn1C1CCCCC1)N1CCC(n2c(=O)[nH]c3ccccc32)CC1 (stereo not given) | inactive: -2.09% |
| COc1cccc(C(c2nnnn2C2CCCCC2)N2CCC(n3c(=O)[nH]c4ccccc43)CC2)c1OC (stereo not given) | inactive: 7.17% |
| CC(=O)N(c1ccccc1)C1CCNCC1 | inactive: -0.92% |

| SMILES | inhibition |
| --- | --- |
| Cc1ccc(NC2(C#N)CCN(Cc3ccccc3)CC2)cc1 | inactive: 10.5% |
| Fc1ccccc1NC1CCN(Cc2ccccc2)CC1 | inactive: 8.44% |
| Cc1ccc(C(=O)NCC2(N3CCCCC3)CCCCC2)o1 | inactive: 5.72% |
| CCN1CCC(Nc2cccc(F)c2)CC1 | inactive: -5.86% |
| COc1ccc(C(c2nnnn2C2CCCCC2)N2CCC(n3c(=O)[nH]c4ccccc43)CC2)cc1 (stereo not given) | inactive: -3.85% |
| CC(C)(C)n1nnnc1C(c1ccnc2ccccc12)N1CCC(n2c(=O)[nH]c3ccccc32)CC1 (stereo not given) | inactive: -1.19% |
| Cc1ccccc1NC1(C#N)CCN(Cc2ccccc2)CC1 | inactive: -7.79% |
| CN(C)c1ccc(C(=O)NCC2(N3CCCCC3)CCCCC2)cc1 | inactive: -14.6% |
| Cn1c(=O)[nH]cc(N(CCCl)CCCl)c1=O | inactive: -9.96% |
| O=C(NCC1(N2CCCCC2)CCCCC1)c1ccco1 | inactive: -11.5% |
| CN1CCC(Nc2ccc(F)c(Cl)c2)CC1 | inactive: 1.1% |
| CCOc1ncccc1C(=O)NCC1(N2CCOCC2)CCCCC1 | inactive: 6.08% |
| O=c1[nH]c2ccccc2n1C1CCN(C(c2cc3ccccc3o2)c2nnnn2C2CCCC2)CC1 (stereo not given) | inactive: 10.7% |
| CCCOc1ccc(C(=O)NCC2(N(C)C)CCCCC2)cc1 | inactive: 8.47% |
| O=C(O)C1(Nc2ccccc2)CCN(Cc2ccccc2)CC1 | inactive: -10.9% |
| NN(c1ccccc1)C1CCN(CCc2ccccc2)CC1 | inactive: 0.02% |
| CC(C)(C)OC(=O)N1CCC(Nc2ccccc2)CC1 | inactive: -2.15% |
| CCC(CO)(C(=O)OC1CN2CCC1CC2)c1ccccc1 (stereo not given) | inactive: -8.55% |
| COc1cccc(C(c2nnnn2C2CCCC2)N2CCC(n3c(=O)[nH]c4ccccc43)CC2)c1OC (stereo not given) | inactive: 9.43% |
| COc1cc(OC)cc(C(=O)NCC2(N3CCOCC3)CCCCC2)c1 | inactive: -0.1% |
| COc1cccc(C(=O)N(c2cc(C)cc(C)c2)C2CCN(C(=O)OC(C)(C)C)CC2)c1 | inactive: -9.13% |
| CN1CCC(Nc2ccc(Cl)cc2)CC1 | inactive: 12.5% |
